Measured values from several laboratories, pooled; numbers as filed in NIAID ChemDB.

All rows: tests in culture; species: Mycobacterium avium

Percent inhibition refers to the dose given; in toxicity tests it is the harm to the cells. Blank or dashed fields: not listed here. MIC50, MIC90 and the like: level of inhibition, or share of isolates inhibited. Lines come from different laboratories, so protocols vary.

smiles | strain | method | tested at | conditions | measure | value
CC(C)N=c1cc2n(-c3ccc(Cl)cc3)c3ccccc3nc-2cc1Nc1ccc(Cl)cc1 | 30 strains |  |  |  | Median MIC | 0.25 µg/mL
CC(C)N=c1cc2n(-c3ccc(Cl)cc3)c3ccccc3nc-2cc1Nc1ccc(Cl)cc1 | 453-C clarithromycin-resistant |  |  |  | MIC | 0.06 µg/mL
CCC[C@@H]1C[C@@H](C(=O)N[C@@H]([C@H]2O[C@H](SC)[C@H](O)[C@@H](O)[C@H]2O)[C@@H](C)O)N(C)C1 | ATCC 25291 |  |  |  | Mean MIC | 120 µg/mL
CCn1cc(C(=O)O)c(=O)c2cc(F)c(-n3cccc3)cc21 |  |  | 3 µg/mL | pH 6.8 | inhibition | 41%
CO[C@H]1/C=C/O[C@@]2(C)Oc3c(C)c(O)c4c(O)c(c(/C=N/N5CCN(C)CC5)c(O)c4c3C2=O)NC(=O)/C(C)=C\C=C\[C@H](C)[C@H](O)[C@@H](C)[C@@H](O)[C@@H](C)[C@H](OC(C)=O)[C@@H]1C | Isolate 90-1110 |  |  |  | MIC | 30 µg/mL
N[C@@H]1CONC1=O | ATCC 25291 |  |  |  | Median MIC | 50 µg/mL
CC[C@@H](CO)NCCN[C@@H](CC)CO | 453 |  |  |  | MIC | 16 µg/mL
CC(=O)O[C@H]1C[C@@]2(C)[C@@H](C[C@@H](O)[C@H]3[C@@]4(C)CC[C@@H](O)[C@@H](C)[C@@H]4CC[C@@]32C)/C1=C(\CCC=C(C)C)C(=O)O | ATCC 25291 |  |  |  | Median MIC | 12 µg/mL
COC1=CC(=O)c2c(O)cc(C)cc2C1=O |  |  |  |  | MFC | 400 µg/mL
CC[C@H]1OC(=O)[C@H](C)[C@@H](O[C@H]2C[C@@](C)(OC)[C@@H](O)[C@H](C)O2)[C@H](C)[C@@H](O[C@@H]2O[C@H](C)C[C@H](N(C)C)[C@H]2O)[C@](C)(OC)C[C@@H](C)C(=O)[C@H](C)[C@@H](O)[C@]1(C)O | N-444 | broth dilution |  |  | MBC | 32 µg/mL
CCc1cc(C(N)=S)ccn1 | 453-C clarithromycin-resistant |  |  |  | MIC | >8 µg/mL
CC12C(=O)c3cccc(O)c3C(=O)C1CC1=C2C(=O)c2c(O)cccc2C1=O |  |  |  |  | MFC | >800 µg/mL
NC[C@H]1O[C@H](O[C@H]2[C@H](O)[C@@H](O[C@H]3O[C@H](CO)[C@@H](O)[C@H](N)[C@H]3O)[C@H](N)C[C@@H]2N)[C@H](N)C[C@@H]1O | ATCC 25291 |  |  |  | Median MIC | 4 µg/mL
CO[C@H]1/C=C/O[C@@]2(C)Oc3c(C)c(O)c4c(O)c(c(N5CCN(Cc6c(C)cc(C)cc6C)CC5)c(O)c4c3C2=O)NC(=O)/C(C)=C\C=C\[C@H](C)[C@H](O)[C@@H](C)[C@@H](O)[C@@H](C)[C@H](OC(C)=O)[C@@H]1C | 3337-4 |  |  |  | MBC | >16 µg/mL
CO[C@H]1/C=C/O[C@@]2(C)Oc3c(C)c(O)c4c(=O)c(c5oc6cc(N7CCN(CC(C)C)CC7)cc(=O)c6nc5c4c3=C2O)NC(=O)/C(C)=C\C=C\[C@H](C)[C@H](O)[C@@H](C)[C@@H](O)[C@@H](C)[C@H](OC(C)=O)[C@@H]1C | 453 |  |  |  | MBC | >0.125 µg/mL
CCn1cc(C(=O)O)c(=O)c2cc(F)c(N3CCN(C)CC3)cc21 | 13 strains |  |  |  | MIC50 | >32 µg/mL
Cc1cc(-c2cc3c(cc2F)c(=O)c(C(=O)O)cn3C2CC2)cc(C)n1 | 55 strains |  |  |  | MIC50 | 0.7 µg/mL
N[C@@H]1CN(c2c(F)cc3c(=O)c(C(=O)O)cn([C@@H]4C[C@@H]4F)c3c2Cl)CC12CC2 | N-444 | broth dilution |  |  | MBC | 2 µg/mL
CC[C@H]1OC(=O)[C@H](C)[C@@H](O[C@H]2C[C@@](C)(OC)[C@@H](O)[C@H](C)O2)[C@H](C)[C@@H](O[C@@H]2O[C@H](C)C[C@H](N(C)C)[C@H]2O)[C@](C)(OC)C[C@@H](C)C(=O)[C@H](C)[C@@H](O)[C@]1(C)O | 800 | broth dilution / radiometric |  | pH 7.4 | MIC | 2 µg/mL
CC[C@H]1OC(=O)[C@H](C)[C@@H](O[C@H]2C[C@@](C)(OC)[C@@H](O)[C@H](C)O2)[C@H](C)[C@@H](O[C@@H]2O[C@H](C)C[C@H](N(C)C)[C@H]2O)[C@](C)(OC)C[C@@H](C)C(=O)[C@H](C)[C@@H](O)[C@]1(C)O | 3090-C clarithromycin-resistant |  |  |  | MIC | 512 µg/mL

2 of the rows above, restated:

smiles | strain | method | tested at | conditions | measure | value
CCc1cc(C(N)=S)ccn1 | 453-C clarithromycin-resistant |  |  |  | MIC | >8 µg/mL
CCn1cc(C(=O)O)c(=O)c2cc(F)c(N3CCN(C)CC3)cc21 | 13 strains |  |  |  | MIC50 | >32 µg/mL